# PubChem BioAssay AID1445 (SRMLSC, 2008)
# Amino acid sequences for entries named in this document (tags omitted).
# UniProt O96935, whole entry: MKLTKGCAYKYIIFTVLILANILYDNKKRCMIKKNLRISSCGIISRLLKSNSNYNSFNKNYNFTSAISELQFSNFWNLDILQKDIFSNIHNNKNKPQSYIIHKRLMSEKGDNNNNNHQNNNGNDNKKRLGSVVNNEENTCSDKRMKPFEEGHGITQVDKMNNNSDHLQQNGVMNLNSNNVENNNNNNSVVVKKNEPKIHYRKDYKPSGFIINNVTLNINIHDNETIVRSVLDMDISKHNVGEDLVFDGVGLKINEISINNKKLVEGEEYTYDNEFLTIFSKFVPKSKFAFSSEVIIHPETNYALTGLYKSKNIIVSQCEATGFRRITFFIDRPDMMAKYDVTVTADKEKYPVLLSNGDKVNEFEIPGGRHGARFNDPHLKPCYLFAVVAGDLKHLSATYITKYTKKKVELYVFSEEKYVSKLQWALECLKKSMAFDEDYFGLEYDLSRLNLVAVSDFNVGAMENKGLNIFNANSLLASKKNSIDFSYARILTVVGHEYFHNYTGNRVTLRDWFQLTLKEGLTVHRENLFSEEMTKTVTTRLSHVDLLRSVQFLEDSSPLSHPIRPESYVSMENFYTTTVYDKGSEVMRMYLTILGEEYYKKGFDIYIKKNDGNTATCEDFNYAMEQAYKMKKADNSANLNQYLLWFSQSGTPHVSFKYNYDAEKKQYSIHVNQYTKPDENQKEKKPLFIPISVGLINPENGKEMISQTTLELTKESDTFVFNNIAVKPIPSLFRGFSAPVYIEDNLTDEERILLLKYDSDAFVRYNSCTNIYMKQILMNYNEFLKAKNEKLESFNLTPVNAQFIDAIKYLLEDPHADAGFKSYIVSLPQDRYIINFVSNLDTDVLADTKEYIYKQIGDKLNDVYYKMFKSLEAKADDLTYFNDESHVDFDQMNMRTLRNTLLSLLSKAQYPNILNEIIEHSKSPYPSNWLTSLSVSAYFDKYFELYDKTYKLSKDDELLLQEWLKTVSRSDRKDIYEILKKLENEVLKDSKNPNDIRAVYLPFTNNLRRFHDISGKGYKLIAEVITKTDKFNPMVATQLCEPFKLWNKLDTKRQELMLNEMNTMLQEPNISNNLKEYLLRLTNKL
# Only a part is listed here, and it is no random draw. Results with a measured potency or affinity are listed apart. Calls of active or inactive are those of the source.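 The calls were made as follows: active = primary inhibition above the hit cutoff, then over 50% inhibition at one or more dose response concentrations (cut at about 23% in these data, passing the limit was not always enough); inconclusive = conflicting primary data, or primary hits not chosen for dose response; inactive = low primary inhibition, or under 50% at every dose.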
# Target: Aminopeptidase N (Plasmodium falciparum (isolate 3D7)) (UniProt O96935)
# Test: malaria alanyl aminopeptidase activity blockers – biochemical, fluorogenic H-Leu-NHMec substrate, 1536-well (AID 1445);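 also: plate controls were DMSO full reaction for no effect and no enzyme background for full effect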
# Conditions: recombinant M1AAP, H-Leu-NHMec fluorogenic kinetic assay; at 30 µM; active compounds read high
row,SMILES,inhibition
1,Cc1c(NP(C)(=O)Oc2ccc(C(C)C)cc2)c(=O)n(-c2ccccc2)n1C (stereo not drawn),inactive: 6.81%
2,COc1ccccc1OP(C)(=O)Nc1ccc(C)c(C)c1 (stereo not drawn),inactive: -0.61%
3,COc1ccc(OP(C)(=O)Nc2ccccc2Br)cc1 (stereo not drawn),inactive: 2.96%
4,Cc1cc(C)cc(OP(C)(=O)Nc2cccc(C(F)(F)F)c2)c1 (stereo not drawn),inactive: -0.14%
5,CP(=O)(OCCOc1ccccc1)OCCOc1ccccc1,inactive: 2.41%
6,CP(=O)(Nc1ccc(Cl)cc1Cl)Oc1ccccc1 (stereo not drawn),inactive: 4.57%
7,Cc1nc2ccc3ccccc3c2o1.O=[N+]([O-])c1cc([N+](=O)[O-])c(O)c([N+](=O)[O-])c1,inactive: 11.6%
8,CCOC(=O)c1ccc(NP(C)(=O)Oc2ccc(Cl)cc2)cc1 (stereo not drawn),inactive: -4.07%
9,CP(=O)(OC12CC3CC(CC(C3)C1)C2)OC12CC3CC(CC(C3)C1)C2,inactive: 4.93%
10,O=C(OCCCN1CCCC1)C(O)(c1ccccc1)C1CCCCC1 (stereo not drawn),inactive: 11.4%
11,CP(=O)(Oc1ccccc1)N1CCOC1=O (stereo not drawn),inactive: 3.97%
12,CCc1ccc(OP(C)(=O)Nc2cccnc2)cc1 (stereo not drawn),inactive: -0.17%
13,CCN(CC)CC(O)COC(=O)C(O)(c1ccccc1)C1CCCCC1 (stereo not drawn),inactive: -2.3%
14,COc1ccc(OP(C)(=O)Nc2ccc(Br)cc2)cc1 (stereo not drawn),inactive: -1.48%
15,CN(C)C(=O)c1c([N+](=O)[O-])cc([N+](=O)[O-])cc1[N+](=O)[O-],inactive: 4.25%
16,CC(C)(C)c1ccc(OP(C)(=O)O)cc1,inactive: 11.9%
17,COc1ccccc1OP(C)(=O)Nc1ccccc1Br (stereo not drawn),inactive: 1.51%
18,CP(=O)(Nc1ccc(Cl)cc1)Oc1ccc(F)cc1 (stereo not drawn),inactive: 8.58%
19,CCc1ccc(OP(C)(=O)N2CCN(c3ccc([N+](=O)[O-])cc3)CC2)cc1 (stereo not drawn),inactive: 6.84%
20,CP(=O)(NC(=O)Nc1ccccc1)Oc1ccccc1 (stereo not drawn),inactive: 2.64%
21,Cc1cc(C)cc(OP(C)(=O)Nc2ccc(SC(F)(F)F)cc2)c1 (stereo not drawn),inactive: 1.23%
22,CP(=O)(Nc1ccc(SC(F)(F)F)cc1)Oc1ccc(Cl)cc1 (stereo not drawn),inactive: 1%
23,Cc1cccc(C)c1OP(C)(=O)Nc1ccc(SC(F)(F)F)cc1 (stereo not drawn),inactive: 3.27%
24,CP(=O)(Oc1ccccc1)OC(c1ccccc1)C(F)(F)F (stereo not drawn),inactive: -0.57%
25,CP(=O)(Nc1ccccn1)Oc1ccc(Cl)cc1 (stereo not drawn),inactive: -4.61%
26,CCOC(=O)c1ccc(NP(C)(=O)Oc2ccc(OC)cc2)cc1 (stereo not drawn),inactive: 10.3%
27,CCOP(C)(=S)SCC(=O)NC(C)C(=O)O (stereo not drawn),inactive: -9.61%
28,CP(=O)(Nc1ccccc1Br)Oc1ccccc1 (stereo not drawn),inactive: 3.07%
